Anti-infective test results gathered from many reports (values: NIAID ChemDB through PubChem).

All rows: whole-cell or culture tests

An empty or dashed field is not shown.

compound	endpoint	agent	read by	changes	strain	setting	result
CCCCCCCN1CCc2c(sc(NC(=O)c3c(F)c(F)c(F)c(F)c3F)c2C(=O)OCC)C1	MIC	Mycobacterium abscessus	turbidity	-	-	-	>100 µM
O=c1oc2ccc(Br)cc2c(=S)n1-c1ccc(Cl)c(Cl)c1	MIC	Mycobacterium kansasii	-	-	6509/96	21 d	8 µM
CC[C@H]1OC(=O)[C@H](C)[C@@H](O[C@H]2C[C@@](C)(OC)[C@@H](OC(C)=O)[C@H](C)O2)[C@H](C)[C@@H](O[C@@H]2O[C@H](C)C[C@H](N(C)C)[C@H]2OC(=O)NN)C(C)(O)C[C@@H](C)/C(=N\OCCCC2CCCCC2)[C@H](C)[C@@H](O)[C@]1(C)O	MIC	Mycobacterium avium complex	-	-	20096 (clarithromycin-resistant)	-	3.13 µg/mL
CC(=O)Nc1cc2c3c(c1)n(C/C=C\Cn1cc(C)c(=O)[nH]c1=O)c(=O)n3CCC2	EC50	Mycobacterium bovis	resazurin / absorbance	-	BCG Pasteur	-	>160 µg/mL
CO[C@@H]1C2OC(C)(C)OC2OC1[C@@H]1CC(=O)N(Cc2ccccc2)C(=O)N1C1CC1	MIC	Mycobacterium aurum	-	-	-	-	>25 µg/mL
CC(C)N=c1cc2n(-c3ccc(Cl)cc3)c3ccccc3nc-2cc1Nc1ccc(Cl)cc1	MIC90	Mycobacterium scrofulaceum	fluorescence	-	-	-	0.292 µg/mL
COc1ccc2oc(=S)n(-c3ccc(C(F)(F)F)cc3)c(=S)c2c1	MIC	Mycobacterium kansasii	-	-	My 235/80	14 d	32 µM
C=C1C(=O)[C@@]23C(=O)O[C@H]4CCC(C)(C)[C@H]5[C@H](O)OC[C@@]45[C@@H]2CC[C@@H]1[C@H]3OC(=O)c1ccccc1	MIC	Mycobacterium phlei	resazurin	-	ATCC 355	-	1 µg/mL
CCCCCCCC/C=C\CCCCCCCCN(C(=O)NCc1ccccc1)[C@@H](CC(=O)OCC)C1O[C@@H]2OC(C)(C)O[C@@H]2[C@H]1OC	MIC	Mycobacterium aurum	-	-	-	-	>25 µg/mL
CC[C@H]1OC(=O)[C@H](C)[C@@H](OC2C[C@@](C)(OC)[C@@H](O)[C@H](C)O2)[C@H](C)[C@@H](O[C@@H]2O[C@H](C)C[C@H](N(C)C)[C@H]2O)C(C)(OC)C[C@@H](C)/C(=N\OCCCOc2ccccc2)[C@H](C)[C@@H](O)[C@]1(C)O	MIC	Mycobacterium avium complex	-	-	20096 (clarithromycin-resistant)	-	6.25 µg/mL
COc1ccc2oc(=S)n(-c3ccc(F)cc3)c(=S)c2c1	MIC	Mycobacterium kansasii	-	-	6509/96	14 d	16 µM
OCC1=C[C@H](N[C@H]2[C@@H](O)[C@@H](O)[C@@H](OC3[C@@H](O)[C@@H](O)[C@@H](O[C@H]4[C@@H](O)[C@@H](O)[C@H](O)O[C@@H]4CO)O[C@@H]3CO)O[C@@H]2CO)[C@H](O)[C@H](O)[C@@H]1O	MIC	Mycobacterium aurum	-	-	-	-	>25 µg/mL
O=c1[nH]c(=O)n(C/C=C\CN2c3cccc4c3N(CCC4)S2(=O)=O)cc1Br	EC50	Mycobacterium bovis	resazurin / absorbance	-	BCG Pasteur	-	>160 µg/mL
CC[C@H]1OC(=O)[C@H](C)[C@@H](O[C@H]2C[C@@](C)(OC)[C@@H](OC(C)=O)[C@H](C)O2)[C@H](C)[C@@H](O[C@@H]2O[C@H](C)C[C@H](N(C)C)[C@H]2OC(=O)NNCc2ccc(OC)cc2)C(C)(O)C[C@@H](C)/C(=N\OCCCC2CCCCC2)[C@H](C)[C@@H](O)[C@]1(C)O	MIC	Mycobacterium avium complex	-	-	20039 (clarithromycin-susceptible)	-	0.78 µg/mL
C[C@@H]1CN(c2c(F)c(N)c3c(=O)c(C(=O)O)cn(C4CC4)c3c2F)C[C@H](C)N1	MIC	Mycobacterium avium complex	-	-	N-980 (HIV+)	-	0.5 µg/mL
CC[C@H]1OC(=O)[C@H](C)[C@@H](O[C@H]2C[C@@](C)(OC)[C@@H](OC(C)=O)[C@H](C)O2)[C@H](C)[C@@H](O[C@@H]2O[C@H](C)C[C@H](N(C)C)[C@H]2OC(=O)NNCc2cccnc2)C(C)(O)C[C@@H](C)/C(=N\OCCCC2CCCCC2)[C@H](C)[C@@H](O)[C@]1(C)O	MIC	Mycobacterium avium complex	-	-	20096 (clarithromycin-resistant)	-	1.56 µg/mL
CO[C@H]1/C=C/O[C@@]2(C)Oc3c(C)c(O)c4c(O)c(c(/C=N/N5CCN(C6CCCC6)CC5)c(O)c4c3C2=O)NC(=O)/C(C)=C\C=C\[C@H](C)[C@H](O)[C@@H](C)[C@@H](O)[C@@H](C)[C@H](OC(C)=O)[C@@H]1C	MIC	Mycobacterium avium intracellulare	-	-	1296	-	0.5 µg/mL
COc1ccc2oc(=O)n(-c3cccc(F)c3)c(=S)c2c1	MIC	Mycobacterium kansasii	-	-	6509/96	21 d	32 µM
Clc1ccc2c(c1)nc1cc(Nc3ccccc3)c(=NC3CCCCC3)cc-1n2-c1ccccc1	MIC	Mycobacterium fortuitum	-	-	8521	-	5 µg/mL
CO[C@H]1/C=C/O[C@@]2(C)Oc3c(C)c(O)c4c(=O)c(c5oc6cc(N7CCN(CC(C)C)CC7)cc(=O)c6nc5c4c3=C2O)NC(=O)/C(C)=C\C=C\[C@H](C)[C@H](O)[C@@H](C)[C@@H](O)[C@@H](C)[C@H](OC(C)=O)[C@@H]1C	MIC	Mycobacterium avium complex	-	-	N-265 (HIV-)	-	0.05 µg/mL
Cc1cn(C/C=C\Cn2c(=O)n3c4c(cc(N)cc42)CCC3)c(=O)[nH]c1=O	EC50	Mycobacterium bovis	resazurin / absorbance	-	BCG Pasteur	-	>160 µg/mL
CCCCCC(CC(=O)N1N=CCCC1C(=O)N[C@H]1COC(=O)C2C[C@@H](C)CNN2C(=O)[C@H](C)NC(=O)[C@@H](CC(C)C)NC1=O)C(=O)O	MIC	Mycobacterium aurum	-	-	SB66	-	6.3 µg/mL
CCOC(=O)C[C@@H](C1O[C@@H]2OC(C)(C)O[C@@H]2[C@H]1OC)N(C(=O)NCc1ccccc1)C1CC1	MIC	Mycobacterium aurum	-	-	-	-	>25 µg/mL
C=C1C(=O)[C@@]23C(=O)O[C@H]4CCC(C)(C)[C@H]5C(=O)OC[C@@]45[C@@H]2CC[C@@H]1[C@H]3OC(=O)C1CCCC1	MIC	Mycobacterium phlei	resazurin	-	ATCC 355	-	1 µg/mL
CC(C)(C)c1ccccc1OCCCON1C(N)=NC(N)=NC1(C)C	MIC	Mycobacterium bovis BCG	fluorescence	Thymidylate synthase (thyA) overexpressing	-	-	3.6 µM
Fc1cccc(-n2c(=S)oc3ccc(Cl)cc3c2=S)c1	MIC	Mycobacterium kansasii	-	-	My 235/80	14 d	8 µM
CCCCN1C(=O)N(c2ccc(F)cc2)C(=O)C[C@H]1C1OC2OC(C)(C)OC2[C@H]1OC	MIC	Mycobacterium aurum	-	-	-	-	>25 µg/mL
COC(=O)/C=C/C(=O)c1ccc(C(C)(C)C)cc1	MIC	Mycobacterium intracellulare	-	-	-	-	4 µg/mL
CCCCCCCCCCCC1OC(c2ccncc2)=NN1C(C)=O	MIC	Mycobacterium intracellulare	agar	-	-	-	6 µg/mL
CCOC(=O)C[C@@H](C1O[C@@H]2OC(C)(C)O[C@@H]2[C@H]1OC)N(C(=O)Nc1ccc(Cl)cc1)C1CC1	MIC	Mycobacterium aurum	-	-	-	-	>25 µg/mL
CCN1CCc2c(sc(NC(=O)c3c(F)c(F)c(F)c(F)c3F)c2C(N)=O)C1	MIC	Mycobacterium abscessus	resazurin / turbidity	-	bolletii 103	-	>200 µM
S=c1oc2ccc(Br)cc2c(=S)n1-c1ccc(Cl)cc1	MIC	Mycobacterium kansasii	-	-	My 235/80	21 d	4 µM
CC[C@H]1OC(=O)[C@H](C)[C@@H](OC2C[C@@](C)(OC)[C@@H](O)[C@H](C)O2)[C@H](C)[C@@H](O[C@@H]2O[C@H](C)C[C@H](N(C)C)[C@H]2O)C(C)(O)C[C@@H](C)/C(=N\OCCSc2ccccc2)[C@H](C)[C@@H](O)[C@]1(C)O	MIC	Mycobacterium avium complex	-	-	20092 (clarithromycin-resistant)	-	25 µg/mL
CC[C@H]1OC(=O)[C@H](C)[C@@H](O[C@H]2C[C@@](C)(OC)[C@@H](O)[C@H](C)O2)[C@H](C)[C@@H](O[C@@H]2O[C@H](C)C[C@H](N(C)C)[C@H]2O)[C@](C)(OC)C[C@@H](C)C(=O)[C@H](C)[C@@H](O)[C@]1(C)O	MIC	Mycobacterium avium complex	-	-	N-978 (HIV+)	-	2 µg/mL
CCCCCCCCCCCCCCCCN1C(=O)N(c2ccccc2)C(=O)C[C@H]1C1OC2OC(C)(C)OC2[C@H]1OC	MIC	Mycobacterium aurum	-	-	-	-	>25 µg/mL
CCN1CCc2c(sc(NC(=O)c3c(F)c(F)c(F)c(F)c3F)c2C(=O)NC)C1	MIC	Mycobacterium abscessus	resazurin / turbidity	-	bolletii 103	-	>100 µM
NNC(=O)c1ccncc1	MIC	Mycobacterium avium complex	-	-	N-962 (HIV+)	-	64 µg/mL
CCCCCCCC1OC(c2ccncc2)=NN1C(C)=O	MIC	Mycobacterium intracellulare	agar	-	-	-	>100 µg/mL
Fc1ccc2oc(=S)n(-c3ccc(Cl)c(Cl)c3)c(=S)c2c1	MIC	Mycobacterium kansasii	-	-	6509/96	14 d	1 µM
Cc1c(F)c(N2CCNC(C)C2)cc2c1c(=O)c(C(=O)O)cn2C1CC1	MIC50	Mycobacterium avium intracellulare	-	-	-	-	6.25 µg/mL
COc1ccc2oc(=O)n(-c3ccc(C)cc3)c(=S)c2c1	MIC	Mycobacterium kansasii	-	-	My 235/80	14 d	16 µM
CCCCCCC(=O)O[C@H]1[C@H](C)OC(O[C@H]2[C@H](C)[C@@H](O[C@@H]3O[C@H](C)C[C@H](N(C)C)[C@H]3O)C(C)(O)C[C@@H](C)/C(=N\OCCCOc3ccccc3)[C@H](C)[C@@H](O)[C@](C)(O)[C@@H](CC)OC(=O)[C@@H]2C)C[C@@]1(C)OC	MIC	Mycobacterium avium complex	-	-	20092 (clarithromycin-resistant)	-	3.13 µg/mL
NC(=O)c1c(NC(=O)c2c(F)c(F)c(F)c(F)c2F)sc2c1CCOC2	MIC	Mycobacterium abscessus	turbidity	-	-	-	95 µM
OCCCCCCCCN=C=S	MIC	Mycobacterium scrofulaceum	visual reading	-	-	-	8 µg/mL
Cc1cc(C)n(C(=O)C2CC(=O)N(c3cccc(OC4=C(Cl)C(=O)c5ccccc5C4=O)c3)C2)n1	MIC	Mycobacterium luteum	-	-	B-917	-	250 µg/mL
C=C1C(=O)[C@@]23C(=O)O[C@H]4CCC(C)(C)[C@H]5[C@H](O)OC[C@@]45[C@@H]2CC[C@@H]1[C@H]3OC(=O)c1cnccn1	MIC	Mycobacterium phlei	resazurin	-	ATCC 355	-	4 µg/mL
Nc1ccc(C(=O)O)c(O)c1	MIC	Mycobacterium bovis BCG	fluorescence	-	-	-	0.5 µM
CC1(C)CC[C@]2(C(=O)O)CC[C@]3(C)C(CC[C@@H]4[C@@]5(C)C[C@H](O)CC(C)(C)[C@@H]5CC[C@]43C)[C@@H]2C1	MIC	Mycobacterium simiae	resazurin	-	-	-	100 µg/mL
C=C1C(=O)[C@@]23C(=O)O[C@H]4CCC(C)(C)[C@H]5C(=O)OC[C@@]45[C@@H]2CC[C@@H]1[C@H]3OC(=O)c1cc2ccccc2[nH]1	MIC	Mycobacterium phlei	resazurin	-	ATCC 355	-	0.5 µg/mL

Again, the opening 7 rows:

compound | endpoint | agent | read by | changes | strain | setting | result
CCCCCCCN1CCc2c(sc(NC(=O)c3c(F)c(F)c(F)c(F)c3F)c2C(=O)OCC)C1 | MIC | Mycobacterium abscessus | turbidity | - | - | - | >100 µM
O=c1oc2ccc(Br)cc2c(=S)n1-c1ccc(Cl)c(Cl)c1 | MIC | Mycobacterium kansasii | - | - | 6509/96 | 21 d | 8 µM
CC[C@H]1OC(=O)[C@H](C)[C@@H](O[C@H]2C[C@@](C)(OC)[C@@H](OC(C)=O)[C@H](C)O2)[C@H](C)[C@@H](O[C@@H]2O[C@H](C)C[C@H](N(C)C)[C@H]2OC(=O)NN)C(C)(O)C[C@@H](C)/C(=N\OCCCC2CCCCC2)[C@H](C)[C@@H](O)[C@]1(C)O | MIC | Mycobacterium avium complex | - | - | 20096 (clarithromycin-resistant) | - | 3.13 µg/mL
CC(=O)Nc1cc2c3c(c1)n(C/C=C\Cn1cc(C)c(=O)[nH]c1=O)c(=O)n3CCC2 | EC50 | Mycobacterium bovis | resazurin / absorbance | - | BCG Pasteur | - | >160 µg/mL
CO[C@@H]1C2OC(C)(C)OC2OC1[C@@H]1CC(=O)N(Cc2ccccc2)C(=O)N1C1CC1 | MIC | Mycobacterium aurum | - | - | - | - | >25 µg/mL
CC(C)N=c1cc2n(-c3ccc(Cl)cc3)c3ccccc3nc-2cc1Nc1ccc(Cl)cc1 | MIC90 | Mycobacterium scrofulaceum | fluorescence | - | - | - | 0.292 µg/mL
COc1ccc2oc(=S)n(-c3ccc(C(F)(F)F)cc3)c(=S)c2c1 | MIC | Mycobacterium kansasii | - | - | My 235/80 | 14 d | 32 µM

MIC50, MIC90 and the like: level of inhibition, or share of isolates inhibited. Conditions beyond the fields shown may differ between rows. ECn is the concentration giving n% inhibition of infection, replication or growth.